From PMC12666128, “Engineering ω-transaminase for efficient dihydroxyacetone transamination in serinol biosynthesis starting from methanol” (Synthetic and Systems Biotechnology, 2025) come the findings set out here.

The subject of this data set is O=C(CO)CO. Description: purified protein. The following applies: DHA as varied substrate; PLP-dependent; variant M3.

Consider “Cv-ωTA (Chromobacterium violaceum ATCC 12472; C418F/Y153F/Y168F)”, for which the Michaelis-Menten constant (Km) came out at 7.22 ± 0.13 mM, the kcat worked out at 3.04 s⁻¹ and the specificity constant (kcat/Km) came out at 420 M⁻¹ s⁻¹.
